Data published in publication PMC8145535, “New Acyl Derivatives of 3-Aminofurazanes and Their Antiplasmodial Activities” (Pharmaceuticals, 2021).

Assays:
P. falciparum K1 = assay: In vitro 3H-hypoxanthine incorporation assay, erythrocytic stages, K1 strain; format: cell-based, Plasmodium falciparum; settings: selectivity index, L-6 cells vs P.f. K1
Method: (§1) Chloroquine (Sigma C6628) was used as standard. […] Serial drug dilutions of 11 3-fold dilution steps covering a range from 100 to 0.002 μg/mL were prepared. The 96-well plates were incubated in a humidified atmosphere at 37 °C; 4% CO2, 3% O2, 93% N2. […] The plates were incubated for a further 24 h under the same conditions. The plates were then harvested with a Betaplate cell harvester (Wallac, Zurich, Switzerland). The red blood cells were transferred onto a glass fiber filter and washed with distilled water. The dried filters were inserted into a plastic foil with 10 mL of scintillation fluid and counted in a Betaplate liquid scintillation counter (Wallac, Zurich, Switzerland).

P. falciparum NF54 = assay: In vitro 3H-hypoxanthine incorporation assay, erythrocytic stages, NF54 strain; format: cell-based, Plasmodium falciparum; settings: selectivity index, L-6 cells vs P.f. NF54
Method: as §1

Row | Compound | S.I. = IC50 (Cyt.)/IC50 (P.f. K1) (P. falciparum K1) | S.I. = IC50 (Cyt.)/IC50 (P.f. NF54) (P. falciparum NF54)
1 | C[C@@H]1CC[C@H]2[C@@H](C)C(=O)O[C@@H]3O[C@@]4(C)CC[C@@H]1[C@]32OO4 [ART, artemisinin, reference compound] | 70390 | 
2 | CCOc1ccc(-c2nonc2NC(=O)c2ccccc2)cc1OCC [Compound 10, N-(4-(3,4-Diethoxyphenyl)-1,2,5-oxadiazol-3-yl)benzamide] | 1222 | 1463
3 | CCOc1ccc(-c2nonc2NC(=O)c2cccc(C(F)(F)F)c2)cc1OCC [Compound 13, N-(4-(3,4-Diethoxyphenyl)-1,2,5-oxadiazol-3-yl)-3-(trifluoromethyl)benzamide] | 1424 | 524.6
4 | CCOc1ccc(-c2nonc2NC(=O)c2cccc(F)c2)cc1OCC [Compound 14, N-(4-(3,4-Diethoxyphenyl)-1,2,5-oxadiazol-3-yl)-3-fluorobenzamide] | 380.5 | 838.6
5 | CCOc1ccc(-c2nonc2NC(=O)c2ccc(OC)c(Cl)c2)cc1OCC [Compound 16, 3-Chloro-N-(4-(3,4-diethoxyphenyl)-1,2,5-oxadiazol-3-yl)-4-methoxybenzamide] |  | 1431
6 | CCOc1ccc(-c2nonc2NC(=O)c2ccc(OC)c(F)c2)cc1OCC [Compound 17, N-(4-(3,4-Diethoxyphenyl)-1,2,5-oxadiazol-3-yl)-3-fluoro-4-methoxybenzamide] |  | 209.8
7 | CCOc1ccc(-c2nonc2NC(=O)c2ccc(CN3CCCC3)cc2)cc1OCC [Compound 26, N-(4-(3,4-Diethoxyphenyl)-1,2,5-oxadiazol-3-yl)-4-((pyrrolidin-1-yl)methyl)benzamide] | 54.25 | 25.07
8 | CCOc1ccc(-c2nonc2NC(=O)c2ccc(CN3CCOCC3)cc2)cc1OCC [Compound 27, N-(4-(3,4-Diethoxyphenyl)-1,2,5-oxadiazol-3-yl)-4-((morpholin-4-yl)methyl)benzamide] | 199.7 | 172.7
9 | CCOc1ccc(-c2nonc2NC(=O)c2cccc(CN3CCCC3)c2)cc1OCC [Compound 28, N-(4-(3,4-Diethoxyphenyl)-1,2,5-oxadiazol-3-yl)-3-((pyrrolidin-1-yl)methyl)benzamide] |  | 402.2
10 | CCOc1ccc(-c2nonc2NC(=O)c2cccc(CN3CCOCC3)c2)cc1OCC [Compound 29, N-(4-(3,4-Diethoxyphenyl)-1,2,5-oxadiazol-3-yl)-3-((morpholin-4-yl)methyl)benzamide] |  | 146.0
11 | CCOc1ccc(-c2nonc2NC(=O)CN2CCCC2)cc1OCC [Compound 31, N-(4-(3,4-Diethoxyphenyl)-1,2,5-oxadiazol-3-yl)-2-(pyrrolidin-1-yl)acetamide] | 48.25 | 33.46
12 | CCOc1ccc(-c2nonc2NC(=O)CN2CCOCC2)cc1OCC [Compound 32, N-(4-(3,4-Diethoxyphenyl)-1,2,5-oxadiazol-3-yl)-2-(morpholin-4-yl)acetamide] | 13.61 | 10.95
13 | CCOc1ccc(-c2nonc2NC(=O)CCN2CCCC2)cc1OCC [Compound 34, N-(4-(3,4-Diethoxyphenyl)-1,2,5-oxadiazol-3-yl)-3-(pyrrolidin-1-yl)propanamide] | 58.09 | 2.50
14 | CCOc1ccc(-c2nonc2NC(=O)CCN2CCOCC2)cc1OCC [Compound 35, N-(4-(3,4-Diethoxyphenyl)-1,2,5-oxadiazol-3-yl)-3-(morpholin-4-yl)propanamide] | 7.76 | 4.88
15 | Cc1cccc(C(=O)Nc2nonc2-c2ccccc2)c1 [Compound 39, 3-Methyl-N-(4-phenyl-1,2,5-oxadiazol-3-yl)benzamide] | 1.65 | 3.07
